According to the supplement of paper PMC9931576:
Human monoclonal antibodies against the spike receptor-binding domain (heavy:light variable regions). IC50 against pseudoviruses bearing the spike of naturally observed variants; lower = stronger; >10 µg/ml means not reached at the top dose. No active / inactive call. The stated detection limit is 0.0005 µg/ml; values near or below 0.001 µg/ml lie at the floor of the assay.

B1: BD55-6290 (protein)
chain 1: QVQLVQSGAEVRKPGASVKVSCKTSGYTFTTYYIHWVRQAPGQGLEWMGIINPSGDATSYEKKFQGSVTMTSDTSTSTVYLELSSLTSEDTAVYYCARDGAGIPAAESLDYWGQGTLVTVSS
chain 2: DIQLTQSPSFLSASVGDRVTITCRASQGISSSLAWYQQKPGKAPKVLIYAASTLQSGVPSRFSGSGSGTEFTLTISSLQPEDFATYYCQQLFRYPPFTFGPGTKVHIK
B2: BD55-6289 (protein)
chain 1: QVQLQQRGAGLLRPSETLSLTCDVSGGSFSGYYWNWVRQPPGKGLEWIGDIDLAGNNYNPSLKSRVTMSIDASKNQFSLRLSSVTAADTAVYYCARAPNLGWFGPKQGAFDLWGQGTVVIVSS
chain 2: not shown
B3: BD55-1208 (protein)
chain 1: EVQLVESGGGLVQPGGSLRLSCVASEIIVSRNYMSWVRQAPGKGLEWVSVIYSGGSTFYADSVTGRFTISRDDSKNTLFLDMNSLRPDDTALYYCARDFGDFYFDVWGQGTLVTVSS
chain 2: DIVLTQSPGTLSLSPGKRATLSCRASQSVHNFLAWYQQKPGQAPRLLIYDASSRAAGIADRFSGSGSGTDFTLTISRLEPEDFAFYYCQHYGGSPRTFGQGTKVEIK
B4: BD55-6281 (protein)
chain 1: QEQLVQSGAEVKKPGASVKVSCKASGYTFTNYDINWVRQAAGQGLEWMGWMSPNSGDTGYAHKFQGRVTMTRDTSKSTAYMELSNLTFEDTAVYFCARKLGGQKYYYYYAVDVWGQGTAVAVSS
chain 2: DIQMTQSPSSLSASVGDRVTITCRASQSISYYLNWYQQKPGKAPKLLIYAASSLHTGVPSRFSGSGSGTDFTLTISSLQPEDFATYYCQQSYSTPSTFGPGTKVEVK
B5: BD55-6314 (protein)
chain 1: QAQLVQSGAEVKKPGASVRVSCKASGYRFTGYGVSWVRQAPGQGLEWMGWISAYNGDTNYAQNFQGRVTMTTDTSTSTAYMDLRSLRSDDTAVYYCARDEAVTLTYYSGSGHSPYFDYWGQGTLVTVSS
chain 2: QSALTQPASVSGSPGQSITISCTRTSSDVGNYNFVSWYQQHPGKAPKLMIYEGSKRPSGVSNRFSGSKSGNTASLTISGLQAEDEADYFCCSHAGTSTLLFGGGTKLTVL
B6: BD55-1214 (protein)
chain 1: QVQLVQSGAEVKKPGASVKVSCKASEYTFSNYYIHWVRQAPGQGLEWLGIINPTGGSTTYAQNFQGRVSMTSDTSTTTVYMELSSLRSEDTAVYYCARGGIIPNTHEAFDMWGQGTMVTVSS
chain 2: EIVMTQSPATLSVSPGERATLSCRASQSVSRNLGWYQQKLGQAPRLLIYGASTRATGIPARFSGSGSGTEFTLTISSLQSEDFAVYYCQQYKSWPYTSGQGTKLEIK
B7: BD55-1211 (protein)
chain 1: QVTLKESGPVLVKPTETLTLTCTVSGFSLSIPKMGVSWIRQPPGKALEWLADIFSNDEKSYNTSLKSRLTISKDTSKSQVVLVMTNMDPVDTASYYCARTLGDTRWMVTRYFDLWGRGTLVTVSS
chain 2: SYELTQPPSVSVSPGQTARITCSGDTLPNQYTYWYQHKPGQAPVLVIYKDSERPSGIPERFSASTSGTTVTLTVSGVQAEDEADYYCQIADSSGAYFGGGTKLTVL

Each binder was assayed against SARS-CoV-2 Omicron BA.1 spike pseudovirus (assay: pseudovirus neutralization IC50; higher = weaker neutralization).
Procedure: (§1)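 Single-round VSV luciferase pseudovirus mixed with antibody dilutions for 1 h and put on Huh-7 cells for about a day; IC50 from the dose curve.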
In the case of B1, the “pseudovirus neutralization IC50” value is reported as over 10 µg/mL. In the case of B2, the “pseudovirus neutralization IC50” value is reported as over 10 µg/mL. For B3, the “pseudovirus neutralization IC50” value was 0.00241 µg/mL. B4 was tested, and the “pseudovirus neutralization IC50” value was over 10 µg/mL. B5 was tested, and the “pseudovirus neutralization IC50” value was over 10 µg/mL. For B6, the “pseudovirus neutralization IC50” value was over 10 µg/mL. With B7 the “pseudovirus neutralization IC50” value was over 10 µg/mL.

Each binder was assayed against SARS-CoV-2 Omicron BA.2 spike pseudovirus in the same assay as above.
Procedure: as §1
In the case of B1, the “pseudovirus neutralization IC50” value is reported as over 10 µg/mL. With B2 the “pseudovirus neutralization IC50” value was over 10 µg/mL. With B3 the “pseudovirus neutralization IC50” value was 0.00267 µg/mL. With B4 the “pseudovirus neutralization IC50” value was over 10 µg/mL. For B5, the “pseudovirus neutralization IC50” value was over 10 µg/mL. With B6 the “pseudovirus neutralization IC50” value was over 10 µg/mL. For B7, the “pseudovirus neutralization IC50” value was over 10 µg/mL.

The binders below were run against SARS-CoV-2 Omicron BA.2.75 spike pseudovirus in the same assay as above.
Procedure: as §1
In the case of B1, the “pseudovirus neutralization IC50” value is reported as over 10 µg/mL. B2 was tested, and the “pseudovirus neutralization IC50” value was over 10 µg/mL. In the case of B3, the “pseudovirus neutralization IC50” value is reported as 0.0204 µg/mL. In the case of B4, the “pseudovirus neutralization IC50” value is reported as over 10 µg/mL. B5 was tested, and the “pseudovirus neutralization IC50” value was over 10 µg/mL. In the case of B6, the “pseudovirus neutralization IC50” value is reported as over 10 µg/mL. With B7 the “pseudovirus neutralization IC50” value was over 10 µg/mL.

The binders below were run against SARS-CoV-2 Omicron BA.5 spike pseudovirus in the same assay as above.
Procedure: as §1
In the case of B1, the “pseudovirus neutralization IC50” value is reported as over 10 µg/mL. For B2, the “pseudovirus neutralization IC50” value was over 10 µg/mL. With B3 the “pseudovirus neutralization IC50” value was 0.00401 µg/mL. With B4 the “pseudovirus neutralization IC50” value was over 10 µg/mL. With B5 the “pseudovirus neutralization IC50” value was over 10 µg/mL. B6 was tested, and the “pseudovirus neutralization IC50” value was over 10 µg/mL. In the case of B7, the “pseudovirus neutralization IC50” value is reported as over 10 µg/mL.

Each binder was assayed against SARS-CoV-2 Omicron BQ.1.1 spike pseudovirus in the same assay as above.
Procedure: as §1
With B1 the “pseudovirus neutralization IC50” value was over 10 µg/mL. With B2 the “pseudovirus neutralization IC50” value was over 10 µg/mL. In the case of B3, the “pseudovirus neutralization IC50” value is reported as 0.0289 µg/mL. In the case of B4, the “pseudovirus neutralization IC50” value is reported as over 10 µg/mL. For B5, the “pseudovirus neutralization IC50” value was over 10 µg/mL. With B6 the “pseudovirus neutralization IC50” value was over 10 µg/mL. In the case of B7, the “pseudovirus neutralization IC50” value is reported as over 10 µg/mL.

Each binder was assayed against SARS-CoV-2 Omicron XBB spike pseudovirus in the same assay as above.
Procedure: as §1
For B1, the “pseudovirus neutralization IC50” value was over 10 µg/mL. With B2 the “pseudovirus neutralization IC50” value was over 10 µg/mL. In the case of B3, the “pseudovirus neutralization IC50” value is reported as 0.319 µg/mL. B4 was tested, and the “pseudovirus neutralization IC50” value was over 10 µg/mL. B5 was tested, and the “pseudovirus neutralization IC50” value was over 10 µg/mL. With B6 the “pseudovirus neutralization IC50” value was over 10 µg/mL. With B7 the “pseudovirus neutralization IC50” value was over 10 µg/mL.

What follows are binders tested against SARS-CoV-2 early D614G spike pseudovirus in the same assay as above.
Procedure: as §1
For B1, the “pseudovirus neutralization IC50” value was over 10 µg/mL. In the case of B2, the “pseudovirus neutralization IC50” value is reported as over 10 µg/mL. With B3 the “pseudovirus neutralization IC50” value was 0.00346 µg/mL. For B4, the “pseudovirus neutralization IC50” value was over 10 µg/mL. With B5 the “pseudovirus neutralization IC50” value was over 10 µg/mL. B6 was tested, and the “pseudovirus neutralization IC50” value was over 10 µg/mL. B7 was tested, and the “pseudovirus neutralization IC50” value was over 10 µg/mL.
